Data taken from publication PMC8876964 (Pharmaceuticals, 2022).

Assays:
[1] = test system: BxPC-3 tumors and normal organs; assay: H&E and Ki-67 immunohistochemical staining of tissues of treated mice; type: in vivo; conditions: 37 MBq per mouse
BxPC-3 tumors = assay: Therapy studies in BxPC-3 tumor-bearing mice; type: in vivo, athymic nude mice; conditions: for mice with significant weight loss of greater than 20% of body weight: n = 8
Protocol: Therapy studies were conducted in athymic nude mice bearing BxPC-3 tumors when the tumor volume reached about 100 mm^3. […] Tumor volumes and body weights were monitored three times a week. Individual tumor size was calculated using the formula (length × width × width)/2. The mice were euthanized when the tumor reached 1500 mm^3, ulceration of >4 mm was present, or significant stress due to weight loss. […] The doses were administered via tail vein and tumor size and mouse weights were recorded three times a week. Tumor volumes were plotted versus time to determine tumor growth inhibition.

[2] = Biodistribution in normal CD-1 mice; type: in vivo; conditions: mouse, iv, total radioactivity, 0.37 MBq i.v., n = 4–5, mean ± SD
Protocol: The comparison of non-albumin binding and albumin binding peptides were evaluated in CD-1 mice at 1, 4, 24, and 48 h. ^177Lu-labeled peptides were prepared at the specific activity of 10 MBq/nmol. Mice (n = 4–5) were intravenously injected with 0.37 MBq (10 µCi) of respective radioligands diluted in 100 μL saline and sacrificed at specified time points. Selected organs were collected, weighed, and counted for activity. The results were reported as the percentage of the injected radioactivity per gram of tissue mass (% ID/g) and the radioactivity was calibrated using a known standard.

[3] = Biodistribution in mice bearing BxPC-3 tumor xenografts; type: in vivo; conditions: athymic nude, mouse, iv, total radioactivity, BxPC-3 tumor mice, 0.37 MBq i.v.; for tissue uptake at 48 h: 48 h p.i.
Protocol: Animals were supplied from Charles River Laboratories (Wilmington, MA, USA), and were handled in compliance with the Guidelines for Care and Use of Research Animals established by the Division of Comparative Medicine and the Animal Studies Committee of Washington University School of Medicine. Biodistribution studies were conducted in athymic nude mice bearing subcutaneous BxPC-3 tumors. Tumors were implanted on the right flank with 5 × 10^6 cells about 4 weeks before the performance of the experiments. Biodistribution studies were performed when the tumors reached approximately 5–7 mm in diameter. […] Tissues of interest (blood, lung, liver, spleen, kidney, muscle, heart, bone, and tumor) were collected and weighed, and the radioactivity was measured using a gamma counter. The results were expressed as the percentage of injected dose per gram of tissue (%ID/g).

[4] = blood, n = 4–5, mean ± SD, read-out: blood uptake
[5] = n = 4–5, mean ± SD, read-out: tumor uptake

SMILES: CC(C)C[C@H](NC(=O)[C@H](CC(=O)O)NC(=O)CNC(=O)[C@H](CCCNC(=N)N)NC(=O)[C@H](CC(C)C)NC(=O)[C@H](CC(N)=O)NC(=O)[C@@H]1CCCN1C(=O)[C@@H](NC(=O)[C@H](C)NC(=O)[C@H](CC(N)=O)NC(=O)CCOCCOCCOCCOCCOCCOCCOCCOCCOCCOCCOCCOCCOCCOCCOCCOCCOCCOCCOCCOCCOCCOCCOCCOCCOCCOCCOCCOCCNC(=O)[C@H](CCCCNC(=O)CCCc1ccc(I)cc1)NC(=O)CN1CCN(CC(=O)O)CCN(CC(=O)O)CCN(CC(=O)O)CC1)C(C)C)C(=O)N[C@@H](CCC(N)=O)C(=O)N[C@H](C(=O)N[C@@H](CC(C)C)C(=O)N[C@@H](C)C(=O)N[C@@H](CCC(N)=O)C(=O)N[C@@H](CCCCN)C(=O)N[C@H](C(=O)N[C@@H](C)C(=O)N[C@@H](CCCNC(=N)N)C(=O)N[C@H](C(=O)NCCOCCOCCOCCOCCOCCOCCOCCOCCOCCOCCOCCOCCOCCOCCOCCOCCOCCOCCOCCOCCOCCOCCOCCOCCOCCOCCOCCOCCC(N)=O)[C@@H](C)O)C(C)C)C(C)C [[^177Lu]Lu-IBA-DOTA-(PEG28)2-A20FMDV2, metal not drawn]
- % intact in human serum: > 90%
- kidney histology (H&E) ([1]; n = 4): kidney injury
- histology of heart, lung, liver and spleen sections (H&E) ([1]; n = 4, data not shown): Injury was not observed
- Ki-67 expression in tumor tissues ([1]; n = 4, mean ± SD, control group 51.39 ± 5.56%, p = 0.0044): 34.51 ± 5.24%
- mice with significant weight loss of greater than 20% of body weight (BxPC-3 tumors; 18.5 MBq): One mouse
- tumor inhibition in comparison to control group (BxPC-3 tumors; 18.5 MBq, n = 8, until day 23, p < 0.01): effective tumor inhibition
- mice with significant weight loss of greater than 20% of body weight (BxPC-3 tumors; 27.8 MBq): 4 out of 8
- tumor inhibition in comparison to control group (BxPC-3 tumors; 27.8 MBq, n = 8, until day 23 (p < 0.001 for the IBA peptide)): effective tumor inhibition
- body weight change (BxPC-3 tumors; single dose of 37 MBq): significant weight loss, but not as severe
- tumor volumes in comparison to the control group (BxPC-3 tumors; single dose of 37 MBq, BxPC-3 tumor-bearing mice, n = 8, p < 0.001): significantly reduced
- tissue uptake at 1 h ([2]; blood, read-out: blood uptake): 4.7 ± 0.68 %ID/g
- tissue uptake at 48 h ([2]; blood, 48 h p.i., read-out: blood uptake): 0.09 ± 0.02 %ID/g
- tissue uptake at 1 h ([2]; kidney, read-out: kidney uptake): 93.4 ± 13.5 %ID/g
- tissue uptake at 48 h ([2]; kidney, 48 h, read-out: kidney uptake): 25 ± 1.92 %ID/g
- tissue uptake at 1 h ([3]; blood, 1 h p.i., n = 4–5, mean ± SD): 5.43 ± 0.71 %ID/g
- tissue uptake at 4 h [3, 4]: 1.06 ± 0.07 %ID/g
- tissue uptake at 48 h [3, 4]: 0.04 ± 0.01 %ID/g
- tissue uptake at 4 h [3, 5]: 5.14 ± 0.92 %ID/g
- tissue uptake at 48 h [3, 5]: 4.06 ± 0.54 %ID/g
- tissue uptake at 4 h ([3]; kidney, n = 4–5, mean ± SD, read-out: kidney uptake): 119 ± 24.5 %ID/g
- tissue uptake ([3]; lung, liver, spleen, muscle, heart, bone, all time points (1, 4, 24, 48 h), read-out: uptake in normal organs such as lung, liver, spleen, muscle, heart, and bone): < 4 %ID/g

Where two headings read alike, the source gives them in different places.
